Data taken from publication PMC10305189, “Synthesis, Bioactivity and Molecular Docking of Nereistoxin Derivatives Containing Phosphonate” (2023).

The chains behind the UniProt entries cited, without tags or fusion partners. Residues count along the entry.
UniProt P22303, 32-614 limits assumed: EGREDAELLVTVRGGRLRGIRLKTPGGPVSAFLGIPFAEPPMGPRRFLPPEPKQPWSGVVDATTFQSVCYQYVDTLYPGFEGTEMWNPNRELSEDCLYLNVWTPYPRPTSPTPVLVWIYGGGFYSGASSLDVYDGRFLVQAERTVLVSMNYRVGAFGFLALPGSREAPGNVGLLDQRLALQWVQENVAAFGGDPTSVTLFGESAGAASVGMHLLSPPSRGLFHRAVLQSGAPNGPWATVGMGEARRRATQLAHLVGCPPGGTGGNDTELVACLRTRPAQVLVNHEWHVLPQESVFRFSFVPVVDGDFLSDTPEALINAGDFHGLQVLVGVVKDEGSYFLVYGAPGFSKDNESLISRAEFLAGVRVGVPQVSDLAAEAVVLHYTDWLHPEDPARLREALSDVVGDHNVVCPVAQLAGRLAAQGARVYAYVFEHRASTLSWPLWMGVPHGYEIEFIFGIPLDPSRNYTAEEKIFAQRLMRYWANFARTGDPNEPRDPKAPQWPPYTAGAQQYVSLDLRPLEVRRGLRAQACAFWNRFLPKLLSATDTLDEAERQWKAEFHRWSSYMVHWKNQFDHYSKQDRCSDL

Molecular target: human acetylcholinesterase (AChE) (Homo sapiens, UniProt P22303)
Assay: AChE inhibition, modified Ellman's method (in vitro)
Settings: 2 mmol/L, n = 3

CN(C)C1CSSC1
AChE Inhibition Rate (%) 5 min (5 min): 66.02% | AChE Inhibition Rate (%) 20 min (20 min): 53.98% | AChE Inhibition Rate (%) 30 min (30 min): 41.27%
